Measured values reported in patent US20230104311A1, “NOVEL 6-SUBSTITUTED 7-DEAZAPURINES AND CORRESPONDING NUCLEOSIDES AS MEDICAMENTS” (KATHOLIEKE UNIVERSITEIT LEUVEN, priority 2020, published 2023).

System: human norovirus (HuNoV)
Test: Inhibition of in vitro replication of genogroup 1 NoV in HG23 NoV replicon cells (qRT-PCR of intracellular RNA)
Format: cell-based
Conditions: ratio CC50 / EC50

Row | SMILES | SI50
1 | CC(C)Cc1ncnc2c1ccn2[C@@H]1O[C@H](CO)[C@@H](O)[C@H]1O [Compound 11i, 6-Isobutyl-9-β-D-ribofuranosyl-7-deazapurine] | >52632
2 | OC[C@H]1O[C@@H](n2ccc3c(C4CC4)ncnc32)[C@H](O)[C@@H]1O [Compound 11j, 6-Cycloproyl-9-β-D-ribofuranosyl-7-deazapurine] | >487
3 | CCCc1ncnc2c1ccn2[C@@H]1O[C@H](CO)[C@@H](O)[C@H]1O [Compound 11e, 6-Propyl-9-β-D-ribofuranosyl-7-deazapurine] | >6274
4 | CC(C)c1ccc(-c2ncnc3c2ccn3[C@@H]2O[C@H](CO)[C@@H](O)[C@H]2O)cc1 [Compound 11m, 6-(4-isoproylphenyl)-9-β-D-ribofuranosyl-7-deazapurine] | >100000
5 | CCc1ccc(-c2ncnc3c2ccn3[C@@H]2O[C@H](CO)[C@@H](O)[C@H]2O)cc1 [Compound 11q, 6-(4-Ethylphenyl)-9-β-D-ribofuranosyl-7-deazapurine] | >2
6 | CCc1ncnc2c1ccn2[C@@H]1O[C@H](CO)[C@@H](O)[C@H]1O [Compound 11d, 6-Ethyl-9-β-D-ribofuranosyl-7-deazapurine] | 438
7 | OC[C@H]1O[C@@H](n2ccc3c(C4CCCCC4)ncnc32)[C@H](O)[C@@H]1O [Compound 11l, 6-Cyclohexyl-9-β-D-ribofuranosyl-7-deazapurine] | 235
8 | OC[C@H]1O[C@@H](n2ccc3c(C4CCCC4)ncnc32)[C@H](O)[C@@H]1O [Compound 11k, 6-Cyclopentyl-9-β-D-ribofuranosyl-7-deazapurine] | 1
9 | CC(C)c1ncnc2c1ccn2[C@@H]1O[C@H](CO)[C@@H](O)[C@H]1O [Compound 11c, 6-Isopropyl-9-β-D-ribofuranosyl-7-deazapurine] | >4120
10 | Cc1ncnc2c1ccn2[C@@H]1O[C@H](CO)[C@@H](O)[C@H]1O [Compound 11b, 6-Methyl-9-β-D-ribofuranosyl-7-deazapurine] | 46
11 | OC[C@H]1O[C@@H](n2ccc3c(-c4ccccc4)ncnc32)[C@H](O)[C@@H]1O [Compound 11o, 6-Phenyl-9-β-D-ribofuranosyl-7-deazapurine] | >474
12 | C[C@@]1(O)[C@H](O)[C@@H](CO)O[C@H]1n1ccc(N)nc1=O [2’Cmethyl Cytidine, 2′-C-Methyl-cytidine, reference compound] | >10
13 | Cc1ccc(-c2ncnc3c2ccn3[C@@H]2O[C@H](CO)[C@@H](O)[C@H]2O)cc1 [Compound 11a, 6-(4-Methylphenyl)-9-β-D-ribofuranosyl-7-deazapurine] | >5291
14 | COc1ccc(-c2ncnc3c2ccn3[C@@H]2O[C@H](CO)[C@@H](O)[C@H]2O)cc1 [Compound 11n, 6-(4-Methoxylphenyl)-9-β-D-ribofuranosyl-7-desazapurine] | >1068
15 | CN(C)c1ccc(-c2ncnc3c2ccn3[C@@H]2O[C@H](CO)[C@@H](O)[C@H]2O)cc1 [Compound 11p, 6-(4-(Dimethylamino)phenyl)-9-β-D-ribofuranosyl-7-deazapurine] | >1
16 | CCCCCc1ncnc2c1ccn2[C@@H]1O[C@H](CO)[C@@H](O)[C@H]1O [Compound 11f, 6-Pentyl-9-β-D-ribofuranosyl-7-deazapurine] | >119
17 | CCCCCCc1ncnc2c1ccn2[C@@H]1O[C@H](CO)[C@@H](O)[C@H]1O [Compound 11g, 6-Hexyl-9-β-D-ribofuranosyl-7-deazapurine] | 479
